Results on three molecules are retold here after PMC10051705, “Leishmanicidal Activity of Guanidine Derivatives against Leishmania infantum” (Tropical Medicine and Infectious Disease, 2023).

In the data set the test system is human red blood cells. Nature of the data set: red blood cell lysis assay. The format is cell-based. The note with it: HC50 red blood cells / IC50 promastigotes. The procedure:
The hemolytic activities of guanidine compounds were measured using human red blood cells from healthy adults (n = 3) according to methods previously described. Briefly, 80 µL of a 5% erythrocyte/phosphate-buffered saline (PBS) suspension was mixed with 20 µL of LQOFG-2, LQOFG-6, LQOFG-7, (1000 to 7.8 µM), and AmB (100 to 0.78 µM). After incubation at 37 °C for 1 h, 200 µL of PBS (1.5 mM KH2PO4, 8.1 mM Na2HPO4, 136.9 mM NaCl, and 2.6 mM KCl, pH 7.2) was added to stop the hemolysis process, and the samples were centrifuged for 10 min at 1000× g. The supernatants were collected, and the extent of hemolysis was measured spectrophotometrically at 540 nm. The hemolysis percentage was determined as [(Abssam − Abscon)/(Abstot − Abscon) × 100], where Abssam is the absorbance of the sample, Abscon is the absorbance of the blank control (without drugs), and Abstot is the absorbance of total hemolysis (replacing the sample solution with an equal volume of ultrapure water (Direct-Q UV®, Guyancourt, France)).

Where only a bound is given, the exact number is not on record here.

With `C[C@@H]1[C@H](O)[C@@H](C)/C=C/C=C/C=C/C=C/C=C/C=C/C=C/[C@H](O[C@@H]2O[C@H](C)[C@@H](O)[C@H](N)[C@@H]2O)C[C@@H]2O[C@](O)(C[C@@H](O)C[C@@H](O)[C@H](O)CC[C@@H](O)C[C@@H](O)CC(=O)O[C@H]1C)C[C@H](O)[C@H]2C(=O)O` [Amphotericin B, reference compound], the “SI (HC50/IC50)” value is 4.73. For `CC(C)(C)c1ccc(N/C(=N\C(=O)c2ccccc2)NCc2ccccc2)cc1` [LQOFG-6, (Z)-N-((benzylamine)((4-(tert-butyl)phenyl)amino)methylene)benzamide], the “SI (HC50/IC50)” value is on record as more than 40.98. The figure for `O=C(/N=C(/NCc1ccccc1)Nc1ccc(I)cc1)c1ccccc1` [LQOFG-7, (Z)-N-((benzylamine)((4-iodophenyl)amino)methylene)benzamide] is more than 42.37.
